Taken from: PubChem BioAssay AID504761 (Drosophila RNAi Screening Center, 2011)
The screen tested about 22,000 reagents; this is an unselected part of those that have a named target and a result. In the full data, 116 (0.52%) are marked active. 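Calls depend on retest data that are not deposited; infection was ranked per plate without normalising between plates; the unit of the infection score is not given.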 Raw values vary from plate to plate and are shown uncorrected. A number with no mark means an inactive call. Names joined by + are all predicted targets of the reagent. The record does not give: the amount of reagent, the time to read-out.

- Test: 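Fly genes whose silencing reduces dengue virus type 2 infection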 (primary screen)
- Cells: D.Mel-2 cells from Drosophila
- Reagents: long dsRNA against Drosophila genes
- Conditions: infection with dengue virus type 2; dose and infection time not stated
- Detection: 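Per well on two replicate plates, imaging gave the percent of cells positive for viral envelope protein, ranked by infection, and a nuclear count of cells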
- Direction: infection score: higher = more virus-infected cells; cell count: higher = more cells in the well
- Call rule: 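Low infection ranks in the two replicates (chance level up to 0.065) followed by a retest with a 1.5-fold or larger significant decrease, p below 0.05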
- Calls: active = confirmed: knock-down lowers infection; inactive = not picked or not confirmed

| Target gene | PubChem SID | infection score, replicate 1 | infection score, replicate 2 | cell count, replicate 1 | cell count, replicate 2 |
| --- | --- | --- | --- | --- | --- |
| Mdh1 (retired record) | SID104182638 | 21.3 | 8.75 | 5137 | 5889 |
| Jon74E | SID104190409 | 4.17 | 3.16 | 6232 | 6448 |
| Jon74E | SID104202955 | 7.84 | 2.04 | 5959 | 5892 |
| beag | SID104195088 | 9.16 | 12.5 | 5161 | 5748 |
| put | SID104196831 | 16 | 25.5 | 4942 | 5820 |
| mRpL17 | SID104188142 | 4.32 | 7.28 | 5119 | 4864 |
| kin17 | SID104191682 | 12.9 | 8.81 | 5855 | 5958 |
| kin17 | SID104205365 | 9.89 | 1.66 | 6529 | 6672 |
| iotaTry | SID104187426 | 27 | 35.4 | 2058 | 6099 |
| Cht6 | SID104197793 | 1.69 | 0.78 | 6624 | 6549 |
| Cht6 | SID104198045 | 1.51 | 1.89 | 6352 | 6821 |
| Cht6 | SID104202568 | 0.82 | 7.42 | 6066 | 6362 |
| Cht6 | SID104206639 | 20.6 | 24.9 | 6897 | 5202 |
| CG7264 | SID104190585 | 2.56 | 2.49 | 6252 | 6463 |
| CG7264 | SID104204590 | 4.81 | 4.18 | 6070 | 5724 |
| Ir51a | SID104186048 | 5.72 | 8.95 | 6272 | 6439 |
| Reg-5 | SID104184439 | 9.89 | 49 | 6211 | 4361 |
| CG12490 + CG30265 | SID104204256 | 5.63 | 5.89 | 6373 | 6278 |
| ncd | SID104196804 | 3.21 | 1.46 | 6208 | 6039 |
| CG12182 | SID104187934 | 6.36 | 3.95 | 6350 | 6600 |
| CG12693 | SID104197674 | 4.57 | 3.08 | 1488 | 6717 |
| CG14356 | SID104194611 | 6.15 | 16 | 6354 | 6201 |
| Ctu2 | SID104181816 | 9.95 | 6.73 | 6681 | 6507 |
| Ctu2 | SID104207861 | – | – | 292 | 321 |
| Osi14 | SID104192160 | 3.96 | 14.1 | 6773 | 6468 |
| Osi14 | SID104204941 | 1.93 | 0.99 | 6123 | 5957 |
| CG31418 | SID104201441 | 7.34 | 2.34 | 6399 | 6482 |
| CG31418 | SID104204704 | 6.93 | 2.84 | 5888 | 5988 |
| FRG1 | SID104190440 | 14.5 | 7.25 | 6653 | 6633 |
| Nt5a | SID104188353 | 6.06 | 11.3 | 6405 | 4267 |
| Ir56a | SID104185568 | 3.06 | 2.79 | 5749 | 5591 |
| Ir56a | SID104207134 | 15.9 | 1.19 | 2815 | 505 |
| CG33218 (retired record) | SID104202301 | 1.16 | 3.77 | 6386 | 7238 |
| CG15653 | SID104184036 | 15.2 | 25.1 | 5899 | 6120 |
| CG33768 | SID104191507 | 5.16 | 6.44 | 6673 | 6923 |
| Pbp95 | SID104195240 | 11.1 | 1.77 | 6551 | 6571 |
| Pbp95 | SID104205827 | 42 | 25.4 | 5604 | 5116 |
| ClpX | SID104195384 | 8.64 | 7.94 | 6055 | 6861 |
| CG13896 | SID104188158 | 1.13 | 1.91 | 5747 | 6294 |
| CheB98a | SID104194674 | 17.1 | 1.25 | 5314 | 6425 |
| CG1827 | SID104186511 | 7.65 | 4.29 | 5412 | 6200 |
| Fer3 | SID104195925 | 5.57 | 7.74 | 6281 | 6655 |
| Fer3 | SID104205213 | 1.3 | 11.4 | 6222 | 6020 |
| mgr | SID104195891 | 8.62 | 5.29 | 6545 | 6500 |
| CG15554 | SID104194884 | 8.12 | 2.8 | 3647 | 6867 |
| CG1688 | SID104202564 | 3.9 | 1.5 | 6046 | 6916 |
| CG31635 | SID104182065 | 7.7 | 1.44 | 5285 | 6713 |
| CG31139 | SID104201157 | 3.4 | 12.6 | 5821 | 5952 |
| CG14260 | SID104194547 | 1.56 | 7.05 | 6619 | 5716 |
| ClC-b | SID104187012 | 6.51 | 20 | 6883 | 5604 |
| CG33937 (retired record) | SID104194940 | 2.85 | 5.58 | 6570 | 7022 |
| CG31974 | SID104180314 | 5.1 | 11.2 | 6729 | 7193 |
| Claspin | SID104188100 | 8.07 | 1.81 | 6244 | 6408 |
| ckd | SID104188210 | 1.52 | 4.63 | 6429 | 6441 |
| CG10651 | SID104181878 | 7.35 | 5.48 | 6309 | 6934 |
| Aladin | SID104197913 | 1.39 | 1.29 | 6614 | 6067 |
| Aladin | SID104208041 | – | – | 352 | 372 |
| CG12061 | SID104200507 | 1.37 | 4.21 | 5769 | 5649 |
| CG7102 | SID104182439 | 6.24 | 2.81 | 6268 | 6629 |
| CG7102 | SID104182799 | 6.72 | 0.23 | 7206 | 856 |
| mbm | SID104180111 | 2.93 | 2.55 | 5936 | 5835 |
| l(2)05714 | SID104182910 | 6 | 4.35 | 5501 | 5101 |
| l(2)05714 | SID104208373 | 15.1 | 6.99 | 6052 | 5753 |
| CG1806 | SID104199579 | 1.65 | 4 | 6296 | 6479 |
| vn | SID104202578 | 3.26 | 18.8 | 6835 | 6691 |
| vn | SID104205094 | 4.23 | 7.98 | 6697 | 6401 |
| CG3902 | SID104190179 | 2.76 | 1.55 | 6845 | 6958 |
| CG3902 | SID104203110 | 3.66 | 2.7 | 6589 | 6307 |
| x16 | SID104180752 | 3.71 | 0.9 | 6489 | 6188 |
| x16 | SID104183430 | 4.56 | 1.91 | 6029 | 5815 |
| x16 | SID104202920 | 2.17 | 3 | 6441 | 6570 |
| kn | SID104185988 | 12.2 | 15.9 | 6231 | 5356 |
| kn | SID104187429 | 22.7 | 23.1 | 5203 | 5949 |
| kn | SID104201251 | 1.34 | 1.42 | 5805 | 6563 |
| kn | SID104202903 | 2.53 | 5.64 | 6199 | 5671 |

5 of these entries in another layout:
Target gene | PubChem SID | infection score, replicate 1 | infection score, replicate 2 | cell count, replicate 1 | cell count, replicate 2
vn | SID104205094 | 4.23 | 7.98 | 6697 | 6401
CG3902 | SID104190179 | 2.76 | 1.55 | 6845 | 6958
CG3902 | SID104203110 | 3.66 | 2.7 | 6589 | 6307
x16 | SID104180752 | 3.71 | 0.9 | 6489 | 6188
x16 | SID104183430 | 4.56 | 1.91 | 6029 | 5815
